# The list shows a part of the results, in another mix than the full data. The source made the active and inactive calls.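 Rule for the calls: active = replicate mean overnight rise in green fluorescent reporter signal, 3 or more SD over negative controls; inactive = the rest.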
# Test: activators of Burkholderia fixLJ two-component system, primary screen, B. multivorans, GFP reporter (AID 1918990)
# Details: B. multivorans fixK-promoter GFP reporter, 18 h; active compounds read high
row,SMILES,z-score
1,Cc1ncn(C)c1C(=O)NCC1(N2CCOCC2)CCCCC1,inactive: -0.46
2,CCN(C)C1(CNC(=O)c2cc(C(C)C)nn2C)CCCCC1,inactive: 0.17
